## PSTVd loop 15 mutant pool in Nicotiana benthamiana

Reference: Wu et al. 2024, doi:10.1371/journal.ppat.1012142.

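Three N. benthamiana plants were inoculated with the whole mutant pool. Samples came from the inoculated region at 5 days, the leaf margin at 10 and upper systemic leaves at 12.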

Region: loop 15 of PSTVd (intermediate strain), upper and lower strand joined, each 5' to 3', the first 7 letters being the upper strand, closing pairs included. Wild type: GGAAACCGCUACUAC. Varied positions (N): GGAAACCGNNNNNNC.

Values are reads per thousand in the sample; higher means more abundant, 0 means not found. Each site shows the three plants. "Pool" is the share in the plasmid pool used as inoculum, on the same scale. The inoculated region was read from the minus strand, the other sites from the plus strand. For reference, wild type rose from 33.9 per thousand in the pool to 202, 200, 159 (inoculated region), 724, 746, 710 (leaf margin) and 856, 883, 880 (systemic leaves).

| sequence | pool | inoculated region | leaf margin | systemic leaves |
|---|---|---|---|---|
| GGAAACCGAGCUGAC | 0.128 | 0.246 0.177 0.324 | 0 0.0223 0.0401 | 0 0 0 |
| GGAAACCGAGCUGCC | 0.240 | 0.246 0.337 0.152 | 0 0.0223 0 | 0.0161 0 0 |
| GGAAACCGAGCUGGC | 0.256 | 0.0491 0.0964 0.0762 | 0 0 0 | 0.0161 0 0 |
| GGAAACCGAGCUGUC | 0.176 | 0.0328 0.0643 0.0381 | 0.0323 0.0223 0 | 0 0 0 |
| GGAAACCGAGCUUAC | 0.272 | 0.213 0.225 0.343 | 0.0808 0.0223 0.200 | 0.0483 0.0605 0.114 |
| GGAAACCGAGCUUCC | 0.160 | 0.0655 0.0803 0.0952 | 0.0162 0 0 | 0.0161 0 0 |
| GGAAACCGAGCUUGC | 0.176 | 0.0655 0.0643 0.209 | 0.0323 0 0 | 0.0161 0 0 |
| GGAAACCGAGCUUUC | 0.224 | 0.115 0.177 0.171 | 0 0.0223 0 | 0.0483 0 0 |
| GGAAACCGAGGAAAC | 0.352 | 0.0491 0.0964 0.0762 | 0 0 0.0200 | 0.0161 0 0 |
| GGAAACCGAGGAACC | 0.240 | 0.0328 0.145 0.114 | 0 0 0 | 0 0 0 |
| GGAAACCGAGGAAGC | 0.256 | 0.115 0.0803 0.0762 | 0 0 0 | 0 0 0 |
| GGAAACCGAGGAAUC | 0.240 | 0.0655 0.0803 0.114 | 0.0323 0 0.0401 | 0 0 0 |
| GGAAACCGAGGACAC | 0.208 | 0.115 0.0803 0.114 | 0 0.0223 0.0401 | 0.0483 0 0 |
| GGAAACCGAGGACCC | 0.256 | 0.0655 0.0482 0.114 | 0 0 0.0200 | 0 0 0 |
| GGAAACCGAGGACGC | 0.240 | 0.131 0.0803 0.152 | 0 0.0223 0.0200 | 0 0 0 |
| GGAAACCGAGGACUC | 0.336 | 0.0819 0.129 0.0381 | 0.0162 0 0.0200 | 0 0 0 |
| GGAAACCGAGGAGAC | 0.256 | 0.0328 0.0643 0.0952 | 0 0.0223 0 | 0 0 0 |
| GGAAACCGAGGAGCC | 0.144 | 0.0819 0.145 0.0571 | 0 0 0 | 0.0161 0 0 |
| GGAAACCGAGGAGGC | 0.176 | 0.0983 0.0643 0.171 | 0 0.0223 0 | 0 0 0 |
| GGAAACCGAGGAGUC | 0.352 | 0.131 0.0964 0.0952 | 0 0 0 | 0 0 0 |
| GGAAACCGAGGAUAC | 0.208 | 0.426 0.337 0.647 | 0.113 0.0668 0.100 | 0.0805 0.0605 0.0912 |
| GGAAACCGAGGAUCC | 0.256 | 0.0819 0.0964 0.0571 | 0.0162 0 0 | 0 0 0 |
| GGAAACCGAGGAUGC | 0.320 | 0.0655 0.0643 0.0381 | 0 0 0 | 0 0 0 |
| GGAAACCGAGGAUUC | 0.416 | 0.0983 0.177 0.114 | 0.0162 0.0223 0 | 0.0322 0 0 |
| GGAAACCGAGGCAAC | 0.176 | 0.0983 0.0643 0.0952 | 0.0162 0.0223 0.0401 | 0 0 0 |
| GGAAACCGAGGCACC | 0.304 | 0.0983 0.0803 0.152 | 0 0 0 | 0 0 0 |
| GGAAACCGAGGCAGC | 0.272 | 0.0983 0.0964 0.171 | 0.0162 0 0 | 0 0 0 |
| GGAAACCGAGGCAUC | 0.320 | 0.0655 0.0482 0.0762 | 0 0.0223 0.0200 | 0 0 0 |
| GGAAACCGAGGCCAC | 0.208 | 0.0655 0.0482 0.114 | 0 0 0.0200 | 0 0 0 |
| GGAAACCGAGGCCCC | 0.256 | 0.197 0.225 0.0952 | 0 0 0.0401 | 0 0 0 |
| GGAAACCGAGGCCGC | 0.160 | 0.164 0.0803 0.0571 | 0 0 0.0401 | 0.0161 0 0.0228 |
| GGAAACCGAGGCCUC | 0.128 | 0.0983 0.0643 0.0762 | 0 0 0 | 0 0 0 |
| GGAAACCGAGGCGAC | 0.224 | 0.0983 0.0803 0.0571 | 0 0 0 | 0 0 0 |
| GGAAACCGAGGCGCC | 0.240 | 0.0983 0.0643 0.0381 | 0 0 0 | 0.0161 0 0 |
| GGAAACCGAGGCGGC | 0.160 | 0.147 0.112 0.190 | 0 0 0 | 0 0 0 |
| GGAAACCGAGGCGUC | 0.224 | 0.311 0.273 0.209 | 0 0.0223 0.0401 | 0 0.0151 0 |
| GGAAACCGAGGCUAC | 0.240 | 0.0983 0 0.0762 | 0 0 0 | 0 0 0 |
| GGAAACCGAGGCUCC | 0.176 | 0.0983 0.0643 0.0762 | 0.0323 0 0 | 0 0 0 |
| GGAAACCGAGGCUGC | 0.256 | 0.328 0.177 0.209 | 0 0.0223 0 | 0.0322 0 0 |
| GGAAACCGAGGCUUC | 0.256 | 0.0328 0.129 0.0381 | 0.0162 0 0 | 0 0 0 |
| GGAAACCGAGGGAAC | 0.240 | 0.131 0.145 0.114 | 0 0 0.0200 | 0 0 0 |
| GGAAACCGAGGGACC | 0.144 | 0.0819 0.0964 0.0952 | 0.0323 0 0.0200 | 0 0 0 |
| GGAAACCGAGGGAGC | 0.240 | 0.0983 0.112 0.0762 | 0.0323 0.0223 0.0200 | 0 0 0 |
| GGAAACCGAGGGAUC | 0.128 | 0.115 0.177 0.0762 | 0.0162 0.0223 0 | 0 0 0 |
| GGAAACCGAGGGCAC | 0.272 | 0.115 0.0321 0.0571 | 0.0162 0.0223 0 | 0 0 0 |
| GGAAACCGAGGGCCC | 0.176 | 0.115 0.112 0.133 | 0.0162 0 0 | 0 0 0 |
| GGAAACCGAGGGCGC | 0.224 | 0.115 0.0803 0.0381 | 0.0162 0 0.0401 | 0.0161 0 0 |
| GGAAACCGAGGGCUC | 0.384 | 0.131 0.0482 0.0762 | 0.0323 0 0 | 0 0 0 |
| GGAAACCGAGGGGAC | 0.192 | 0.0328 0.161 0.0762 | 0 0 0.0200 | 0 0 0 |
| GGAAACCGAGGGGCC | 0.224 | 0.0491 0.0643 0.0571 | 0 0 0.0200 | 0 0 0 |
| GGAAACCGAGGGGGC | 0.192 | 0.131 0.0803 0.0762 | 0.0162 0 0.0401 | 0 0 0 |
| GGAAACCGAGGGGUC | 0.128 | 0.115 0.145 0.0571 | 0 0.0445 0.0200 | 0 0 0 |
| GGAAACCGAGGGUAC | 0.128 | 0.426 0.305 0.171 | 0.129 0.111 0.200 | 0.0483 0.0151 0.0228 |
| GGAAACCGAGGGUCC | 0.240 | 0.197 0.112 0.114 | 0 0 0.0200 | 0 0 0 |
| GGAAACCGAGGGUGC | 0.112 | 0.0819 0.0964 0.0952 | 0.0485 0.0223 0 | 0 0 0 |
| GGAAACCGAGGGUUC | 0.240 | 0.328 0.418 0.362 | 0.178 0.0891 0.100 | 0.113 0.0454 0.0912 |
| GGAAACCGAGGUAAC | 0.224 | 0.0983 0.0643 0.0762 | 0 0 0 | 0 0 0 |
| GGAAACCGAGGUACC | 0.224 | 0.0983 0.0482 0.114 | 0 0 0.0200 | 0 0 0 |
| GGAAACCGAGGUAGC | 0.256 | 0.0819 0.0643 0.133 | 0.0162 0.0223 0.0200 | 0 0 0 |
| GGAAACCGAGGUAUC | 0.192 | 0.475 0.450 0.248 | 0.0323 0 0 | 0.0161 0 0 |
| GGAAACCGAGGUCAC | 0.240 | 0.0983 0.112 0.133 | 0 0 0.0401 | 0 0 0 |
| GGAAACCGAGGUCCC | 0.160 | 0.0491 0.0803 0.0571 | 0.0162 0.0223 0.0200 | 0 0 0 |
| GGAAACCGAGGUCGC | 0.336 | 0.115 0.112 0.133 | 0 0 0.0200 | 0 0 0 |
| GGAAACCGAGGUCUC | 0.272 | 0.131 0.289 0.133 | 0 0.0223 0.0200 | 0.0322 0 0 |
| GGAAACCGAGGUGAC | 0.208 | 0.0819 0.0803 0.114 | 0.0162 0 0 | 0 0 0 |

With 43,870-66,106 reads a sample, very low values are single reads. The authors trace changes outside the varied positions to PCR and sequencing errors or to mutation in the plant; presence does not show that a variant is infectious alone.